This data set concerns the molecule itself. As to the kind of experiment: SEC.

Here are results for one protein from publication PMC10506467, “Structural and functional studies of PCNA from African swine fever virus” (Journal of Virology, 2023).

Usually stoichiometry N stands for the number of molecules, sites or subunits per partner or assembly.

B1: African swine fever virus proliferating cell nuclear antigen (natural protein)
chain: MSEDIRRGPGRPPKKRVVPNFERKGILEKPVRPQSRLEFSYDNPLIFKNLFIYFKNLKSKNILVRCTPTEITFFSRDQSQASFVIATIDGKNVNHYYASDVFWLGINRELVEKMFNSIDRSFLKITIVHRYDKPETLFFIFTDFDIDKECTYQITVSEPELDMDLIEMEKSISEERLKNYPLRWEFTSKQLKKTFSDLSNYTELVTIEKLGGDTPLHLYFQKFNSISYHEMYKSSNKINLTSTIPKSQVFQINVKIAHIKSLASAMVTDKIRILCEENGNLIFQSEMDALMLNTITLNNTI
Turning to B1, the “stoichiometry N” value stood at 3.
